Protein sequences, listed by entry. Tags and fused reporters are not part of them. Residues count along the entry.
UniProt Q51817, 229-737 limits assumed: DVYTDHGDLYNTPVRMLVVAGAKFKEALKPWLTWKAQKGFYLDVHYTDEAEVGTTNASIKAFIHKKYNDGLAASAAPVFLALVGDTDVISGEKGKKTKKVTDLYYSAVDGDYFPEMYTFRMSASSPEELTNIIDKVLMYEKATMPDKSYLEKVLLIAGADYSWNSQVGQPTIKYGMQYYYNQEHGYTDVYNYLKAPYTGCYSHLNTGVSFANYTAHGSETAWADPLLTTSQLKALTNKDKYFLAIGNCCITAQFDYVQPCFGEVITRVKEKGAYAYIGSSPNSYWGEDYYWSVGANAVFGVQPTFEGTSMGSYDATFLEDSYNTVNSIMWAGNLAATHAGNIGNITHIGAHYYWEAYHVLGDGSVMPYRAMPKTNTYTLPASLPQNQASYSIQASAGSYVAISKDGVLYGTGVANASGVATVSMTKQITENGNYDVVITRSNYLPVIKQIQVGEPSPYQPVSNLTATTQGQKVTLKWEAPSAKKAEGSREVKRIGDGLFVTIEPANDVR

According to patent US10730826B2, “Ketone inhibitors of lysine gingipain” (CORTEXYME, INC., priority 2016, dated 2020):

Target: Kgp in P. gingivalis W83 bacteria (Porphyromonas gingivalis (Bacteroides gingivalis), UniProt Q51817)
Experiment: Bacterial smear staining with gingipain activity probes
Format: cell-based
Details: 1 μM probe, 1 hr, 37° C.; no signal in Kgp knockout

CC1=CC(C)=[N+]2C1=Cc1ccc(CCC(=O)NCc3cn(-c4cccc(C(=O)NC(CCCCN)C(=O)COc5c(F)cc(CNC(=O)c6ccc(/N=N/c7ccc(N(C)C)cc7)cc6)cc5F)c4)nn3)n1[B-]2(F)F (stereo not shown)
fluorescence of W83 bacteria after exposure to probe: fluorescent
